Test system: AgrC-R238H (constitutively active) isolate AH3470
Experiment: AgrC constitutive reporter assay (rabbit RBC lysis), constitutively active AgrC

With `O=C1c2cc(O)cc(O)c2C(=O)c2c(O)cc(CO)cc21` [OHM, 1,3,8-trihydroxy-6-(hydroxymethyl)anthracene-9,10-dione] the “agr-mediated Hla expression (lysis of rabbit RBCs)” value was “inhibited Hla expression”.
